# Laboratory results taken from the supplement of paper PMC9931576.
# Human monoclonal antibodies against the spike receptor-binding domain (heavy:light variable regions). IC50 against pseudoviruses bearing the spike of naturally observed variants; lower = stronger; >10 µg/ml means not reached at the top dose. No active / inactive call. The stated detection limit is 0.0005 µg/ml; values near or below 0.001 µg/ml lie at the floor of the assay.
# B1: BD56-1636 (protein)
# chain 1: EVQLVESGRGLVQPGGSLRLSCAASGFTFSSYDMHWVRQATGRGLEWVSAIGTAGDTYYRDSVKGRFTISRDDAKNSLYLQMKSLRAGDTAVYYCARGGWGPLASWYFDLWGRGTLVTVSS
# chain 2: DIQMTQSPSSLSASVGDRVTITCRSSQSISKFLNWYQYKPGTAPKLLIYDASSLHSGVPSRFSGSGSGTDFTLTIGSLQPEDFAIYYCQQTYTMPPPTFGQGTRLEIK
# B2: BD56-1639 (protein)
# chain 1: EVQLVQSGAEVKKPGDSLKISCKGSGYSFISYWIGWVRQVPGKGLEWIGIIYPGDSDSTYSPSFQGQVTMSADKSISTAFLQWSSLRASDTAMYYCARRSSSWNEFDFWGQGTLVTVSS
# chain 2: DIQMTQSPSSLSASVGDRVTITCRASQSISSYLNWFQQKPGKVPKLLIYAASSLQSGVPSRFSGSGSGTDFALTISSLQPEDFATYYCQQSDSTPYTFGQGTKLEIK
# B3: BD56-1641 (protein)
# chain 1: DVQLVESAGGLVQPGGSLRLSCAASGFTFSDYSMNWVRQAPGKGLEWVSFISSSSHTIYYADSVKGRFTISRDNAKNSLFLQMNSLRNEDTAVYYCARADLWGSDILTGYSTLLDYWGQGTLVTVSS
# chain 2: EIVLTQSPGTLSLSPGERATLSCRASQSVSSTYIAWYQQKPGQAPRLLIYGASSRAAGIPDRFSGSGSGTDFTLTISTLEPEDFAVYYCQQCGSSPATFGQGTKVEIK
# B4: BD56-1645 (protein)
# chain 1: QVQLVQSGAEVKKPGSSVKVSCKASGGTFNSYGIAWVRQAPGRGLEWMGGVIPMFETTNYAQKFQGRVTITADESTSTAYMELTSLRSEDTAVYYCATDRPLLPAGRSPKSGYFDSWGQGTLVTVSS
# chain 2: EIVLTQSPGTLSLSPGERASLSCRASQFVSSTYLAWYQQKPSQAPRLLIYGASSRATGIPDRFSGSGSGTDFTLTISRLEPEDFAVYYCQQYGNSFPITFGQGTRLEIK
# B5: BD56-1646 (protein)
# chain 1: QVQLAQSGPEVRKPGASVKVSCKASGYTFTSYGINWVRQAPGQGLEWMGWISTYSGDTNYAQKFQGRVTMTTDTSTSTVFMELRSLRADDTAFYYCARNEPGYCGGGSCYWLDPWGQGTLVTVSS
# chain 2: EIVMTQSPATLSVSPGERATLSCWASQSVSNNLAWYQQKPGQAPRLLLYGASTRATGIPARFSGSGSGTDFTLTISSLQSEDFAVYFCLQYDNWPPVFTFGPGTKVDIK
# B6: BD56-1651 (protein)
# chain 1: EIQLVQSGAEVRKPGESLKISCKGSGYSFTSYWIGWVRLLPGKGLEWMGTIYPRDSHTRYSPSFQGQVTISADKSISTAYLQWSSLKASDTATYYCARRGVIVPTAMFQYFDLWGRGTLVTVSS
# chain 2: DIVMTQTPLSLPVTPGEPASISCRSSQSLLDSDDGNTYLDWYLQKPGQSPQLLIYSLSYRASGVPDRFSGSGSGTDFTLKISRVEAEDVGIYYCMQRIEFPFTFGPGTKVDIK
# Target: SARS-CoV-2 Omicron BA.1 spike pseudovirus
# Assay: pseudovirus neutralization IC50; higher = weaker neutralization
# Experimental: (§1)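 Single-round VSV luciferase pseudovirus mixed with antibody dilutions for 1 h and put on Huh-7 cells for about a day; IC50 from the dose curve.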
row,Binder,pseudovirus neutralization IC50
1,B1,> 10 µg/mL
2,B2,> 10 µg/mL
3,B3,> 10 µg/mL
4,B4,> 10 µg/mL
5,B5,1.08 µg/mL
6,B6,> 10 µg/mL

# Target: SARS-CoV-2 Omicron BA.2 spike pseudovirus
# Assay: as above
# Experimental: as §1
row,Binder,pseudovirus neutralization IC50
1,B1,> 10 µg/mL
2,B2,> 10 µg/mL
3,B3,> 10 µg/mL
4,B4,> 10 µg/mL
5,B5,2.74 µg/mL
6,B6,> 10 µg/mL

# Target: SARS-CoV-2 Omicron BA.2.75 spike pseudovirus
# Assay: as above
# Experimental: as §1
row,Binder,pseudovirus neutralization IC50
1,B1,> 10 µg/mL
2,B2,> 10 µg/mL
3,B3,> 10 µg/mL
4,B4,> 10 µg/mL
5,B5,1.19 µg/mL
6,B6,> 10 µg/mL

# Target: SARS-CoV-2 Omicron BA.5 spike pseudovirus
# Assay: as above
# Experimental: as §1
row,Binder,pseudovirus neutralization IC50
1,B1,> 10 µg/mL
2,B2,> 10 µg/mL
3,B3,> 10 µg/mL
4,B4,> 10 µg/mL
5,B5,0.837 µg/mL
6,B6,> 10 µg/mL

# Target: SARS-CoV-2 Omicron BQ.1.1 spike pseudovirus
# Assay: as above
# Experimental: as §1
row,Binder,pseudovirus neutralization IC50
1,B1,> 10 µg/mL
2,B2,> 10 µg/mL
3,B3,> 10 µg/mL
4,B4,> 10 µg/mL
5,B5,2.72 µg/mL
6,B6,> 10 µg/mL

# Target: SARS-CoV-2 Omicron XBB spike pseudovirus
# Assay: as above
# Experimental: as §1
row,Binder,pseudovirus neutralization IC50
1,B1,> 10 µg/mL
2,B2,> 10 µg/mL
3,B3,> 10 µg/mL
4,B4,> 10 µg/mL
5,B5,2.98 µg/mL
6,B6,> 10 µg/mL

# Target: SARS-CoV-2 early D614G spike pseudovirus
# Assay: as above
# Experimental: as §1
row,Binder,pseudovirus neutralization IC50
1,B1,6.56 µg/mL
2,B2,> 10 µg/mL
3,B3,1.36 µg/mL
4,B4,> 10 µg/mL
5,B5,3.05 µg/mL
6,B6,0.0356 µg/mL
